# Reference: PubChem BioAssay AID504850 (National Center for Advancing Translational Sciences (NCATS), 2011)
# The list shows a part of the results, in another mix than the full data. Records with an inconclusive call do not appear. The source made the active and inactive calls. The call rests on the fitted dose curve; in most records, active means well fitted inhibition curve with a large enough effect; inconclusive means small, poorly fitted or top-dose-only effect, or effect the other way; inactive means no such curve, though single readings can be large or run the other way.
# Assay: Confirmation screen for delayed death inhibitors of the malarial parasite plastid, 48 hour incubation; further: nearly all actives have a fitted effect of over 65% in size
# Details: P. falciparum-infected erythrocytes, luciferase growth
# Potency means the concentration at half of the fitted maximal effect.
row,SMILES,Potency
1,CP(=O)(Nc1ccc(SC(F)(F)F)cc1)Oc1ccccc1 (stereo unspecified),active: 10 µM
